# Measurements: patent US20040107458A1
# Biological target: tomato mosaic tobamovirus (ToMV) 30K movement protein (tomato mosaic tobamovirus)
# Experiment: cell-based or functional assay
substance,measurement,value
Tm-2^2 tomato resistance protein (from UniProt Q71BG9 1-861),Seeds with necrotic root (germination assay of the cross of Tm-2^2 homozygous plants with MP homozygous line ATV840-4352),112000 seeds
